Assays:
Enterobacter sp. FDS8 = test: Detoxification of furfural and HMF in lignocellulose hydrolysate by Enterobacter sp. FDS8 cells (HPLC); conditions: for concentration in lignocellulose hydrolysate after detoxification: 3 h, 3.4 g/L cells, 30 °C
Amorphotheca resinae ZN1 = conditions: Table 4; 25 °C, detoxification time 96 h; cited from earlier work
[1] = system: Ureibacillus thermosphaericus; conditions: Table 4; 50 °C, detoxification time 24 h; cited from earlier work
[2] = Table 4, detoxification temperature 30 °C, detoxification time 3 h
[3] = Table 7, consecutive detoxification step 1

| Compound | degradation rate (Enterobacter sp. FDS8; Control (without nitrogen resource)) | degradation rate (Enterobacter sp. FDS8; NaNO3 5 g/L + (NH4)2SO4 5 g/L) | degradation rate (Enterobacter sp. FDS8; Potato extract 10 g/L) | concentration in lignocellulose hydrolysate after detoxification (Enterobacter sp. FDS8; Table 2, 200 mL hydrolysate) | concentration in lignocellulose hydrolysate after detoxification (Enterobacter sp. FDS8; Table 3, 20 ml hydrolysate) | Specific degradation rate (Enterobacter sp. FDS8; [2]) | degradation rate (Enterobacter sp. FDS8; [2]) | concentration in lignocellulose hydrolysate after detoxification (Enterobacter sp. FDS8; [3]) | degradation rate (Enterobacter sp. FDS8; Yeast extract 10 g/L) | degradation rate (Enterobacter sp. FDS8; inoculum size of 4.6 g/L (FIG. 4)) | degradation rate (Amorphotheca resinae ZN1) | Specific degradation rate [1] | degradation rate [1] |
| --- | --- | --- | --- | --- | --- | --- | --- | --- | --- | --- | --- | --- | --- |
| O=Cc1ccc(CO)o1 [HMF, 5-(hydroxymethyl)-2-furaldehyde] | 93 ± 12 mg/L/h | 53 ± 12 mg/L/h | 93 ± 6 mg/L/h | 0 g/L | 0 g/L | 40 mg/g cell/h | 123 mg/L/h | 0 g/L | 97 ± 12 mg/L/h | 123 mg/L/h | 9 mg/L/h | 3 mg/g cell/h | 9 mg/L/h |
| O=C[C@@H](O)[C@H](O)[C@H](O)CO [Arabinose] | – | – | – | 1.94 g/L | 1.69 g/L | – | – | 1.85 g/L | – | – | – | – | – |
| O=C[C@H](O)[C@@H](O)[C@H](O)CO [Xylose] | – | – | – | 17.65 g/L | 16.86 g/L | – | – | 16.9 g/L | – | – | – | – | – |

Reference: patent US20150118736A1, “METHOD OF DEGRADING ORGANIC COMPOUNDS” (Agency for Science, Technology and Research, priority 2012, published 2015)
